Anti-infective test results gathered from many reports (values: NIAID ChemDB through PubChem).

Common to all: tests in culture; species: Mycobacterium kansasii

Lines come from different laboratories, so protocols vary. An empty or dashed field is not shown. A number after MIC or MFC names an inhibition level or a share of isolates.

structure,strain or isolate,setting,endpoint,method,value
O=C(NNC(=O)c1ccncc1)Nc1ccc(Cl)c(Cl)c1,My 6509/96,7 d,MIC100,broth dilution,125 µM
Fc1cccc(-n2c(=S)oc3ccc(F)cc3c2=S)c1,6509/96,14 d,MIC,,16 µM
O=C(Oc1ccc(Cl)cc1C(=O)Nc1cccc(C(F)(F)F)c1)c1cnccn1,6509/96,21 d,MIC,,8 µM
Cc1ccc(-n2c(=O)oc3ccc(C)cc3c2=S)cc1,My 235/80,14 d,MIC,,2 µM
O=C(NNC(=O)c1ccncc1)Nc1ccc(Br)c(C(F)(F)F)c1,My 235/80,21 d,MIC100,broth dilution,>125 µM
O=C(Oc1ccc(Cl)cc1C(=O)Nc1ccc(Br)cc1)c1cnccn1,235/80,21 d,MIC,,4 µM
O=C(Nc1cccc(C(F)(F)F)c1)c1cc(Cl)ccc1OS(=O)(=O)c1ccccc1,235/80,21 d,MIC,,8 µM
O=C(NNC(=O)c1ccncc1)Nc1ccc(C(F)(F)F)cc1,My 6509/96,7 d,MIC100,broth dilution,125 µM
Cc1ccc(-n2c(=O)oc3ccc(Br)cc3c2=S)cc1,My 235/80,21 d,MIC,,4 µM
O=C(Oc1cc(Cl)ccc1C(=O)Nc1cccc(F)c1)c1cnccn1,235/80,7 d,MIC,,4 µM
O=C(NNC(=O)c1ccncc1)Nc1ccc(F)c(Cl)c1,My 235/80,7 d,MIC100,broth dilution,>125 µM
Fc1ccc2oc(=S)n(-c3ccccc3)c(=S)c2c1,My 235/80,14 d,MIC,,4 µM
O=C(Nc1cccc(C(F)(F)F)c1)c1ccc(Cl)cc1OS(=O)(=O)c1ccccc1,235/80,21 d,MIC,,125 µM
O=C(Oc1ccc(Cl)cc1C(=O)Nc1ccc(Cl)cc1)c1cnccn1,6509/96,14 d,MIC,,2 µM
O=C(NNC(=O)c1ccncc1)Nc1ccc(Br)c(F)c1,My 235/80,21 d,MIC100,broth dilution,>125 µM
O=C(Nc1ccc(C(F)(F)F)cc1)c1cc(Cl)ccc1OS(=O)(=O)c1ccccc1,235/80,14 d,MIC,,125 µM
CCCCCCCc1ccc(NC(=O)NNC(=O)c2ccncc2)cc1,My 6509/96,21 d,MIC100,broth dilution,125 µM
Fc1ccc2oc(=S)n(-c3ccc(Cl)cc3)c(=S)c2c1,6509/96,14 d,MIC,,4 µM
O=C(Oc1cc(Cl)ccc1C(=O)Nc1cccc(Cl)c1)c1cnccn1,6509/96,7 d,MIC,,4 µM
O=C(Nc1ccc(Cl)cc1)c1cc(Cl)ccc1OS(=O)(=O)c1ccccc1,6509/96,7 d,MIC,,8 µM
Fc1ccc2oc(=S)n(-c3ccc(C(F)(F)F)cc3)c(=S)c2c1,My 235/80,14 d,MIC,,8 µM
O=C(Oc1cc(Cl)ccc1C(=O)Nc1ccc(Br)cc1)c1cnccn1,235/80,21 d,MIC,,4 µM
FC(F)(F)c1ccc(-n2c(=S)oc3ccc(Br)cc3c2=S)cc1,6509/96,14 d,MIC,,32 µM
O=C(Nc1ccc(Br)cc1)c1ccc(Br)cc1OS(=O)(=O)c1ccccc1,6509/96,14 d,MIC,,8 µM
NC(=O)c1cnccn1,6509/96,21 d,MIC,,1000 µM
O=c1oc2ccc(F)cc2c(=S)n1-c1ccc(Cl)cc1,6509/96,21 d,MIC,,2 µM
Cc1ccc(NC(=O)NNC(=O)c2ccncc2)cc1,My 6509/96,21 d,MIC100,broth dilution,125 µM

A second listing of 3 rows from above:

{"structure": "O=C(NNC(=O)c1ccncc1)Nc1ccc(C(F)(F)F)cc1", "strain or isolate": "My 6509/96", "setting": "7 d", "endpoint": "MIC100", "method": "broth dilution", "value": "125 µM"}
{"structure": "CCCCCCCc1ccc(NC(=O)NNC(=O)c2ccncc2)cc1", "strain or isolate": "My 6509/96", "setting": "21 d", "endpoint": "MIC100", "method": "broth dilution", "value": "125 µM"}
{"structure": "O=C(NNC(=O)c1ccncc1)Nc1ccc(Br)c(F)c1", "strain or isolate": "My 235/80", "setting": "21 d", "endpoint": "MIC100", "method": "broth dilution", "value": ">125 µM"}